This is a selection; strong and weak results do not stand in their true shares. Active and inactive are the calls of the source. Cut-off read from the data, not from the text of the source: active = inhibition above about 25% (passing the limit was not always enough); inactive = the rest.
tested on: BasE (2,3-dihydroxybenzoate-AMP ligase), Acinetobacter baumannii ATCC 17978; experiment: inhibitors of A. baumannii BasE – biochemical, Acinetobacter baumannii ATCC 17978, fluorescence polarization, primary screen (AID 485350); conditions: purified BasE, fluorescence polarization binding displacement; stronger effect = higher value; concentration not given here;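 note: 0% = negative plate control signal and 100% = positive plate control signal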

SMILES | inhibition
OCCSCCO | inactive: 1.13%
CCc1ccc(OP(C)(=O)Nc2cccnc2)cc1 (stereo not given) | active: 55.8%
CP(=O)(Nc1ccc(Cl)cc1)Oc1ccc(F)cc1 (stereo not given) | inactive: -0.77%
CN(C(=O)Cc1ccc(Cl)c(Cl)c1)[C@H]1CCCC[C@@H]1N1CCCC1 | inactive: -2.11%
CCOP(=Nc1nc2ccccc2n2nnnc12)(OCC)OCC | inactive: 1.63%
O=C(COC(=O)C(O)(c1ccccc1)c1ccccc1)N1CCCCC1 | inactive: 3.48%
CCOP(OCC)N1CCOCC1 | inactive: -0.06%
CP(=O)(Nc1ccccn1)Oc1ccccc1 (stereo not given) | inactive: 0.2%
O=P1(Nc2nncs2)C=C(c2ccccc2)SC(c2ccccc2)=C1 | inactive: -0.43%
Cc1cc(NC2=NC3C(C(=O)N(C)C(=O)N3C)N2C)n(-c2ccccc2)n1 (stereo not given) | inactive: 1.13%
O=C(OCCN1CCN(CCOCc2ccccc2)CC1)C(O)(c1ccccc1)c1ccccc1 | inactive: -0.99%
O=C(OCC1CN(Cc2ccccc2)CCO1)C(O)(c1ccccc1)c1ccccc1 (stereo not given) | inactive: -0.73%
CC1CCC(C(C)C)C(OP(=O)(Nc2nccs2)c2ccccc2)C1 (stereo not given) | inactive: 0.55%
COC(=O)c1cc2c(s1)N=C(c1ccccc1)N(C)P2(=O)N1CCOCC1 (stereo not given) | inactive: -0.88%
COc1cc2c(cc1NP(C)(=O)Oc1ccccc1)oc1ccccc12 (stereo not given) | inactive: 0.95%
Nc1nonc1OCc1nonc1COc1nonc1N | inactive: 3.62%
C/C1=C2N=C(/C=C3N=C(/C(C)=C4\[N-][C@@](C)([C@@H]5N=C1[C@](C)(CCC(=O)NC[C@@H](C)OP(=O)([O-])O[C@H]1[C@@H](O)[C@@H](n6cnc7cc(C)c(C)cc76)O[C@@H]1CO)[C@H]5CC(N)=O)[C@@](C)(CC(N)=O)[C@@H]4CCC(N)=O)[C@@](C)(CC(N)=O)[C@@H]\3CCC(N)=O)C(C)(C)[C@@H]/2CCC(N)=O.[C-]#N.[Co+3] | inactive: -3.06%
O=P(Nc1nccs1)(c1ccccc1)c1ccccc1 | inactive: -0.13%
Cc1ccccc1NP(C)(=O)Nc1ccccc1C | inactive: 1.13%
Nc1nonc1-c1no[n+]([O-])c1-c1nonc1N | inactive: -1.81%
CP(=O)(N1CCOCC1)N1CCOCC1 | inactive: 2.17%
Cc1nn(CCC#N)c2c1P(=O)(Nc1ccccc1Cl)N(C)C(c1ccc(F)cc1)=N2 (stereo not given) | inactive: 2.27%
Cc1ccc(C(=O)OC2CN3CCC2CC3)cc1 (stereo not given) | inactive: -1.69%

SMILES | inhibition
Cc1nn(-c2ccccc2)c2c1P(=O)(N1CCOCC1)N(C)C(c1ccccc1)=N2 (stereo not given) | inactive: -2.81%
CCSP(=O)(c1ccccc1)c1ccccc1 | inactive: 1.77%
Cc1cc(C)cc(OP(C)(=O)Nc2ccc(OC(C)C)cc2)c1 (stereo not given) | inactive: -2.13%
NC(=O)COC(=O)C1(O)c2ccccc2-c2ccccc21 | inactive: 2.53%
CCOP1(=S)c2c(C)nn(CCC#N)c2N=C(c2ccc(F)cc2)N1C (stereo not given) | inactive: -0.93%
O=P1(Nc2nc3ccc(Cl)cc3s2)COc2ccccc2OC1 | inactive: -0.4%
NC(=O)Nc1ccc([As](=O)(O)O)cc1 | inactive: 0.58%
Cc1cccc(OCC(=O)OC2CN3CCC2CC3)c1 (stereo not given) | inactive: -0.57%
O=C(OC1CN2CCC1CC2)c1ccc(Cl)cc1 (stereo not given) | inactive: -0.77%
O=C(OC1CN2CCC1CC2)C12CC3CC(CC(C3)C1)C2 (stereo not given) | inactive: 0.25%
O=P1(Nc2nccs2)CC=CC1 | inactive: -0.72%
CC1=Nc2ccc(C(F)(F)F)cc2C1(C)C | inactive: 5.37%
COP1(=S)N=C2c3ccccc3CN2c2cc(N(C)C)ccc21 (stereo not given) | inactive: -1.59%
Nc1nonc1OCCOc1nonc1N | inactive: 0.5%
Cc1cc(C)cc(OP(C)(=O)NCc2ccccc2)c1 (stereo not given) | inactive: 5.92%
CCN1C(=O)N(c2ccccc2)P(=S)(OC)c2cc3c(cc21)OCCO3 (stereo not given) | inactive: 1.48%
COc1ccccc1OP(C)(=O)Nc1ccccc1 (stereo not given) | inactive: 0.09%
CP(=O)(Nc1ccc(Cl)cc1)Oc1ccccc1 (stereo not given) | inactive: -2.78%
CP(=O)(NC(=O)Nc1ccccc1)Oc1ccccc1 (stereo not given) | inactive: 1.72%
COP1(=S)c2c(C)nn(-c3ccccc3)c2N=C(c2ccccc2)N1C1CC1 (stereo not given) | inactive: -1.55%
CCOC(=O)c1ccc(NP(C)(=O)Oc2ccc(OC)cc2)cc1 (stereo not given) | inactive: -2.04%
Cc1cccc(NP(C)(=O)Oc2ccccc2)c1 (stereo not given) | inactive: 2.42%
